Test results: article PMC3199867, “Targeting surface nucleolin with multivalent HB-19 and related Nucant pseudopeptides results in distinct inhibitory mechanisms depending on the malignant tumor cell type” (BMC Cancer, 2011)

Tested on: surface nucleolin
Assay: HIV-1 LAI entry into HeLa-CD4-LTR-LacZ cells (β-galactosidase): function of surface nucleolin
Type: cell-based, human
Conditions: 0.05-0.8 μM, β-galactosidase at 48 h post-infection
From the text: Surface nucleolin serves as a low affinity receptor implicated in the binding and entry of HIV-1 particles into permissive cells. Consequently, HB-19 treatment of cells prevents HIV binding to cells and thus HIV entry and infection. Here HIV-1 LAI entry was monitored in HeLa-CD4-LTR-LacZ cells containing the bacterial lacZ gene under the control of HIV-1 LTR. Virus entry and replication result in trans-activation of HIV-1 LTR by the viral Tat protein, leading to the expression of β-galactosidase. At 48 h post-infection, cell monolayers are lysed in a phosphate buffer containing Nonidet P-40 (Sigma) (1%; v ⁄ v) and assayed for β-galactosidase activity by measuring optical density at 570 nm.
Figure 2 HB-19 and related Nucant pseudopeptides antagonize surface nucleolin and trigger its down regulation. A. Multivalent pseudopeptides block the biological function of surface nucleolin for HIV entry. […] At 48 h post-infection, the β-galactosidase activity was measured in cell extracts directly to monitor HIV entry (Methods). The abscissa gives % Activity of surface nucleolin calculated from the optical density measurements at 570 nm. […] Cytoplasmic (containing cytoplasmic as well as surface nucleolin) and nuclear extracts were analyzed by immunoblotting using mAb D3 as described (Methods)(panels Surface/cytoplasmic NCL, Nuclear NCL). […]

CC(=O)N[C@@H](CCCCNC(=O)[C@H](CCCNC(=N)N)NC(=O)[C@@H]1CCCN1C[C@@H](N)CCCCN)C(=O)NC(C)(C)C(=O)NCC(=O)N[C@@H](CCCCNC(=O)[C@H](CCCNC(=N)N)NC(=O)[C@@H]1CCCN1C[C@@H](N)CCCCN)C(=O)NC(C)(C)C(=O)NCC(=O)N[C@@H](CCCCNC(=O)[C@H](CCCNC(=N)N)NC(=O)[C@@H]1CCCN1C[C@@H](N)CCCCN)C(=O)NC(C)(C)C(=O)NCC(=O)N[C@@H](CCCCNC(=O)[C@H](CCCNC(=N)N)NC(=O)[C@@H]1CCCN1C[C@@H](N)CCCCN)C(=O)NC(C)(C)C(=O)NCC(=O)N[C@@H](CCCCNC(=O)[C@H](CCCNC(=N)N)NC(=O)[C@@H]1CCCN1C[C@@H](N)CCCCN)C(=O)NC(C)(C)C(=O)NCC(=O)N[C@@H](CCCCNC(=O)[C@H](CCCNC(=N)N)NC(=O)[C@@H]1CCCN1C[C@@H](N)CCCCN)C(=O)NC(C)(C)C(=O)NCC(N)=O [Nucant N6L]
inhibitory activity on HIV-1 entry, fold more active compared to the pentavalent constructs N3 and HB-19: ≥ 4 fold
